Reference: PubChem BioAssay (NCI)
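These data come from cells grown in 96-well plates and exposed to compound for 48 hours at five concentrations. At the GI50, growth is halved. TGI marks complete inhibition of growth.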

Columns and labels:
Assay in all cases: DTP human tumour cell line panel, 48 h
SN12C renal = system: SN12C renal
NCI-H322M lung = system: NCI-H322M lung
HS 578T breast = system: HS 578T breast

CC(=O)OC[C@]12C[C@H](OC(=O)CC(C)C)C(C)=C[C@H]1O[C@@H]1[C@H](O)[C@@H](O)[C@@]2(C)[C@@]12CO2 showed a GI50 (SN12C renal) of 0.0267 µM, a TGI (SN12C renal) of 0.141 µM and a GI50 (NCI-H322M lung) of 0.101 µM. It also gave a TGI (NCI-H322M lung) of 0.771 µM, a GI50 (HS 578T breast) of 0.0179 µM and a TGI (HS 578T breast) of 0.0491 µM.
